Measured values from several laboratories, pooled; numbers as filed in NIAID ChemDB.

Shared fields: tests in culture; organism: Herpes simplex virus 1; measure: EC50

Two numbers with a dash give a range or band.

smiles	strain or isolate	cells	read by	result
CC(=O)N[C@@H](CC(C)C)C(=O)N[C@@H](CC(C)C)C(=O)N[C@H](C=O)CCCN=C(N)N	Fukuda	CV-1	plaque count	20–40 µM
Nc1ncnc2c1ncn2C[C@@H](CO)OCP(=O)(O)O	KOS	ESM	cytopathic effect	0.2 µg/mL
Cc1cn([C@@H]2O[C@H](CO)[C@@H](O)[C@@H]2O)c(=O)[nH]c1=O	V3	HELF	plaque count	3.1 µM
C/C(=C\Cn1cnc2c(=O)[nH]cnc21)CO	-	CCL18	cytopathic effect	>100 µg/mL
O=C(O)P(=O)(O)O	K1R	GMK	plaque count	109 µM
Nc1ccn(CC(CO)OCP(=O)(O)O)c(=O)n1	TK- KOS ACVr	Human embryonic lung fibroblasts	cytopathic effect	6 µM
OC[C@H]1O[C@@H](c2cc(/C=C/Br)c(F)cc2F)C[C@@H]1O	KOS	E6SM	cytopathic effect	>400 µg/mL
Nc1ncnc2c1ncn2[C@@H]1O[C@H](COP(=O)(O)O)[C@@H](O)[C@@H]1O	Clinical isolate HL-3	MEF	plaque count	15 µM
O=c1[nH]c(=O)n([C@H]2C[C@H](O)[C@@H](CO)O2)cc1/C=C/Br	KOS	Primary rabbit kidney cells	cytopathic effect	0.007 µg/mL
Cc1cn([C@@H]2O[C@H](CO)[C@@H](O)[C@@H]2F)c(=O)[nH]c1=O	77	HELF	plaque count	0.26 µM
O=C(NCc1ccc(Cl)cc1)c1cn2c3c(cc(CN4CCOCC4)cc3c1=O)OC(c1cccnc1)C2	11893 (ACV-resistant)	HFF	plaque count	5.6 µM
COCc1cn([C@@H]2C[C@H](CO)[C@@H](O)C2)c(=O)nc1NC(C)=O	McIntyre	A549	plaque count	4.79 µM
O=c1[nH]c(=O)n([C@@H]2O[C@H](CO)[C@@H](O)[C@@H]2O)cc1/C=C/Cl	MP	HELF	plaque count	0.017 µg/mL
Nc1nc2c(ncn2COCCO)c(=O)[nH]1	KOS	WI-38	hybridisation	0.04–0.08 µM
O=c1c2ncn(COC(CO)CO)c2nc2[nH]c(-c3ccccc3)cn12	KOS	-	cytopathic effect	0.02 µg/mL
Nc1nc2c(ncn2CCCC(CO)CO)c(=O)[nH]1	C42	BHK	plaque count	3.2 µM
Nc1nc2c(ncn2COCCO)c(=O)[nH]1	CHR-3	HELF	plaque count	0.049 µg/mL
O=c1[nH]c(=O)n([C@H]2C[C@H](O)[C@@H](CO)O2)cc1/C=C/Br	V3	HELF	plaque count	0.05 µM
CCCCC(=O)OC[C@H]1O[C@@H](n2cnc3c(N)ncnc32)[C@@H](O)[C@@H]1O	Clinical isolate HL-34	MEF	plaque count	31 µM
O=C(NCc1ccc(Cl)cc1)c1c[nH]c2c(F)cc(CCCO)cc2c1=O	TSD9 (E597 (A))	-	-	8.2 µM
CCc1c2c(CC)c(CN[C@H]3CCCC[C@@H]3N)c(CC)c1CN[C@H]1CCCC[C@@H]1NCc1ccc([nH]1)CN[C@H]1CCCC[C@@H]1NC2	KOS	Human embryonic lung fibroblasts	cytopathic effect	>20 µM
CC(=O)[C@H]1CCC2C3CC4CC[C@@]5(CCC(=O)C=C45)C3CC[C@@]21C	KOS	BHK-21	cytopathic effect	13.9 µM
O=Cc1cn([C@@H]2O[C@H](CO)[C@@H](O)[C@@H]2O)c(=O)[nH]c1=O	V3	HELF	plaque count	>500 µM
CNc1nc(=O)n([C@@H]2C[C@H](CO)[C@@H](O)C2)cc1COC	McIntyre	A549	plaque count	>1024 µM
Nc1nc2c(ncn2COC(CO)CO)c(=O)[nH]1	TK- KOS ACVr	Human embryonic lung fibroblasts	cytopathic effect	4 µM
Nc1nc2c(ncn2COCCO)c(=O)[nH]1	Tomioka	BALB/3T3	plaque count	0.032 µg/mL
C=Cc1cn([C@@H]2O[C@H](CO)[C@@H](O)[C@@H]2O)c(=O)[nH]c1=O	77	HELF	plaque count	0.08 µM
O=c1[nH]c(=O)n([C@H]2C[C@H](O)[C@@H](CO)O2)cc1I	VR-3	HELF	plaque count	0.28 µg/mL
O=c1ccn([C@@H]2O[C@H](CO)[C@@H](O)[C@H]2O)c(=O)[nH]1	77	HELF	plaque count	120 µM
COCc1cn([C@@H]2C[C@H](CO)[C@@H](O)C2)c(=O)nc1NC(=O)C(C)(C)C	McIntyre	A549	plaque count	>1024 µM
O=C1C2=C(SCCS2)C(=O)N1CCCCN1CCN(c2ccccc2)CC1	-	VERO 76	plaque count	>100 µM
CC(=O)OC(C)[C@H]1CCC2C3CC=C4C[C@@H](OC(C)=O)CC[C@]4(CO)C3CC[C@@]21C	KOS	BHK-21	cytopathic effect	19.6 µM
OC[C@H]1O[C@@H](c2cc(C#CI)c(F)cc2F)C[C@@H]1O	McIntyre	E6SM	cytopathic effect	>400 µg/mL
OC/C(=C/Cn1cnc2c(Cl)ncnc21)c1ccccc1	-	CCL18	cytopathic effect	>100 µg/mL
COCc1cn([C@@H]2C[C@H](CO)[C@@H](O)C2)c(=O)nc1N	McIntyre	A549	plaque count	6.69 µM
c1c[nH]c(CNCc2cc(CNCc3ccc[nH]3)c(CNCc3ccc[nH]3)cc2CNCc2ccc[nH]2)c1	KOS	Human embryonic lung fibroblasts	cytopathic effect	>100 µM
O=C(NCc1ccc(Cl)cc1)c1c[nH]c2ccc(C#CCO)cc2c1=O	-	-	plaque count	7.4 µM
c1c[nH]c(CNCc2c(CNCc3ccc[nH]3)c(CNCc3ccc[nH]3)c(CNCc3ccc[nH]3)c(CNCc3ccc[nH]3)c2CNCc2ccc[nH]2)c1	TK- KOS ACVr	Human embryonic lung fibroblasts	cytopathic effect	>20 µM
O=c1c2ncn(COCCO)c2nc2[nH]c(-c3ccccc3)c(-c3ccc(C(c4ccccc4)c4ccccc4)cc3)n12	F	-	cytopathic effect	>16 µg/mL
Cc1cn([C@@H]2O[C@H](CO)[C@@H](O)[C@@H]2O)c(=O)[nH]c1=O	MP	HELF	plaque count	0.29 µg/mL
CC[C@@H](NC(=O)[C@@H](CC(=O)[C@@H](CC(=O)[C@@H](NC(=O)[C@H](C(C)C)N(C)C(=O)[C@H](C)CC1CCCCC1)C(C)(C)C)CC(=O)C(C)(C)C)C1(C(=O)O)CCCC1)C(C)(C)C	DLSPTK	BHK-21/C13	ELISA	0.46 µM
Cn1cc(C(=O)NCc2ccc(Cl)cc2)c(=O)c2cc(CN3CCOCC3)ccc21	11360 (ACV-resistant)	HFF	plaque count	2.9 µM
CCc1cc(CC)c(CNCc2ccc[nH]2)c(CC)c1	TK- KOS ACVr	Human embryonic lung fibroblasts	cytopathic effect	>20 µM
Nc1ncnc2c1ncn2CC=C(CO)CO	-	CCL18	cytopathic effect	>100 µg/mL
CCc1c(CN[C@@H]2CCCC[C@H]2NCc2ccc[nH]2)c(CC)c(CN[C@@H]2CCCC[C@H]2NCc2ccc[nH]2)c(CC)c1CN[C@@H]1CCCC[C@H]1NCc1ccc[nH]1	TK- KOS ACVr	Human embryonic lung fibroblasts	cytopathic effect	>0.16 µM
O=c1c2ncn(COCCO)c2[nH]c2ncc(C(c3ccccc3)(c3ccccc3)c3ccccc3)n12	VMW 1837	-	cytopathic effect	>16 µg/mL
Nc1nc2c(ncn2[C@@H]2C[C@H](CO)[C@H]2CO)c(=O)[nH]1	KOS	WI-38	hybridisation	0.008–0.08 µM
Cc1nc(N(C)C(=O)Cc2ccc(-c3ccccn3)cc2)sc1S(N)(=O)=O	KT2	VERO	plaque count	0.04 µM
CC(C)[C@H](NC(=O)[C@H](CCCN=C(N)N)NC(=O)N[C@@H](Cc1ccccc1)C(=O)O)C(=O)N[C@H](C=O)CCCN=C(N)N	Fukuda	CV-1	plaque count	20–40 µM
CC(=O)/C=C/[C@]12CC[C@H](OC(C)=O)CC1=CCC1C2CC[C@@]2(C)C1CC[C@@H]2C(C)OC(C)=O	KOS	BHK-21	cytopathic effect	4.77 µM
O=C(O)P(=O)(O)O	HL-3	MEF	plaque count	4.9 µg/mL
CCc1cc([C@H]2C[C@H](O)[C@@H](CO)O2)c(F)cc1F	McIntyre	E6SM	cytopathic effect	>400 µg/mL
Nc1nc2c(ncn2CC(CO)CCO)c(=O)[nH]1	C42	SIRC	plaque count	1.4 µM
Nc1nc(=O)n([C@H]2C[C@H](O)[C@@H](CO)O2)cc1/C=C/Br	-	BHK-21	plaque count	0.45 µM
Nc1ncnc2c1ncn2C[C@@H](CO)OCP(=O)(O)O	KOS phosphonoformic acid-resistant	WI-38	plaque count	<1.6 µM
Nc1ccn(C[C@@H](CO)OCP(=O)(O)O)c(=O)n1	E-377	HFF	plaque count	1.1 µg/mL
CCc1c(CN[C@H]2CCCC[C@@H]2NCc2ccc[nH]2)c(CC)c(CN[C@H]2CCCC[C@@H]2NCc2ccc[nH]2)c(CC)c1CN[C@H]1CCCC[C@@H]1NCc1ccc[nH]1	TK- KOS ACVr	Human embryonic lung fibroblasts	cytopathic effect	>0.8 µM
O=c1[nH]c(=O)n([C@@H]2O[C@H](CO)[C@@H](O)[C@@H]2O)cc1/C=C/Br	V3	HELF	plaque count	0.55 µM
C/C(=C\Cn1cnc2c(N)ncnc21)CO	-	CCL18	cytopathic effect	>100 µg/mL
COc1ccc(-c2[nH]c3nc4c(ncn4COCCO)c(=O)n3c2-c2ccc(C(c3ccccc3)c3ccccc3)cc2)cc1	McIntyre	-	cytopathic effect	>16 µg/mL
O=C(NCc1ccc(Cl)cc1)c1c[nH]c2ccc(C#CCO)cc2c1=O	KOS	-	plaque count	7.4 µM

A second listing of 9 rows from above:

smiles | strain or isolate | cells | read by | result
COc1ccc(-c2[nH]c3nc4c(ncn4COCCO)c(=O)n3c2-c2ccc(C(c3ccccc3)c3ccccc3)cc2)cc1 | McIntyre | - | cytopathic effect | >16 µg/mL
O=C(NCc1ccc(Cl)cc1)c1cn2c3c(cc(CN4CCOCC4)cc3c1=O)OC(c1cccnc1)C2 | 11893 (ACV-resistant) | HFF | plaque count | 5.6 µM
Nc1ncnc2c1ncn2C[C@@H](CO)OCP(=O)(O)O | KOS | ESM | cytopathic effect | 0.2 µg/mL
CCc1cc(CC)c(CNCc2ccc[nH]2)c(CC)c1 | TK- KOS ACVr | Human embryonic lung fibroblasts | cytopathic effect | >20 µM
Nc1nc(=O)n([C@H]2C[C@H](O)[C@@H](CO)O2)cc1/C=C/Br | - | BHK-21 | plaque count | 0.45 µM
O=C1C2=C(SCCS2)C(=O)N1CCCCN1CCN(c2ccccc2)CC1 | - | VERO 76 | plaque count | >100 µM
Nc1nc2c(ncn2[C@@H]2C[C@H](CO)[C@H]2CO)c(=O)[nH]1 | KOS | WI-38 | hybridisation | 0.008–0.08 µM
CC(=O)OC(C)[C@H]1CCC2C3CC=C4C[C@@H](OC(C)=O)CC[C@]4(CO)C3CC[C@@]21C | KOS | BHK-21 | cytopathic effect | 19.6 µM
Cn1cc(C(=O)NCc2ccc(Cl)cc2)c(=O)c2cc(CN3CCOCC3)ccc21 | 11360 (ACV-resistant) | HFF | plaque count | 2.9 µM

Lines come from different laboratories, so protocols vary. An empty or dashed field is not shown. ECn is the concentration giving n% inhibition of infection, replication or growth.